Results of unrelated studies side by side (data: NIAID ChemDB).

All rows: growth or infection tests; species: HIV-1; cells: MT-2; measure: EC50

Rows are shuffled and stem from different studies. ECn is the concentration giving n% inhibition of infection, replication or growth.

Cc1nccn1CCNC(=O)c1c(O)c2ncc(Cc3ccc(F)cc3)c3c2n(c1=O)CC(F)(F)CN3 ; strain: IIIB ; method: ATP / luminescence ; value: 0.014 µM
Cc1ncc(-c2ccc(OCC(C)C)cn2)c(N2CC3C(C2)C3(C)C)c1[C@H](OC(C)(C)C)C(=O)O ; strain: NL4-3 ; method: luminescence ; value: 14.4 µM
CNC(=O)[C@]1(C)Cn2c(=O)c(C(=O)NCCOC)c(O)c3ncc(Cc4ccc(F)cc4)c(c32)O1 ; strain: IIIB ; method: ATP / luminescence ; value: 0.0147 µM
Nc1nc(NC2CC2)c2ncn([C@H]3CO[C@@H](CO)O3)c2n1 ; strain: IIIB Laboratory strain ; method: RT activity ; value: 0.14 µM
Cc1ncc(-c2ccc(OCCc3ccc(F)cc3)cn2)c(N2CCC3(CCCO3)CC2)c1[C@H](OC(C)(C)C)C(=O)O ; strain: NL4-3 ; method: luminescence ; value: 11.7 µM
CC(C)C1=C2[C@H]3CC[C@@H]4[C@@]5(C)CC[C@H](OC(=O)[C@H]6C[C@@H](C(=O)O)C6(C)C)C(C)(C)[C@@H]5CC[C@@]4(C)[C@]3(C)CC[C@@]2(CC(=O)NCc2ccc(N3CCCCC3)cc2)CC1=O ; strain: 92HT599 ; method: p24 / ELISA ; value: <1 µM
Cc1ncc(-c2ccc(OCC(C)C)cn2)c(N2CCC(C)(C#N)CC2)c1[C@H](OC(C)(C)C)C(=O)O ; strain: NL4-3 ; method: luminescence ; value: 6.5 µM
CNc1ncnc2c1ncn2[C@@H]1O[C@H](CO)C[C@@H]1F ; strain: IIIB BCH-13520-resistant (RT K65R) ; changes: RT-K65R ; method: RT activity ; value: 1.8 µM
CNC(=O)c1c(O)c2ncc(Cc3ccc(F)cc3)c3c2n(c1=O)C[C@](C)(C(=O)NC1CC1)O3 ; strain: IIIB ; method: ATP / luminescence ; value: 0.015 µM
Cc1ncc(-c2ccc(OCCc3ccc(F)cc3)cn2)c(N2CCC(C)(c3ccccc3)CC2)c1[C@H](OC(C)(C)C)C(=O)O ; strain: NL4-3 ; method: luminescence ; value: 0.7 µM
Cc1ncc(-c2ccc(OCC3CCCC3)cn2)c(N2CCC(C)(C)CC2)c1[C@H](OC(C)(C)C)C(=O)O ; strain: NL4-3 ; method: luminescence ; value: 0.0016 µM
CNC(=O)c1c(O)c2ncc(Cc3ccc(F)cc3)c3c2n(c1=O)CC(O)(CO)CO3 ; strain: IIIB ; method: ATP / luminescence ; value: 0.004 µM
Cc1ncc(-c2ccc(OCCOc3ccc(F)cc3Cl)nc2)c(N2CCC(C)(C)CC2)c1[C@H](OC(C)(C)C)C(=O)O ; strain: NL4-3 ; method: luminescence ; value: 0.0024 µM
Cc1ncc(-c2ccc(OCC(C)C)cn2)c(N2CCC3(CC2)OCCO3)c1[C@H](OC(C)(C)C)C(=O)O ; strain: NL4-3 ; method: luminescence ; value: 23.4 µM
Cc1ncc(-c2ccc(NCCOc3ccc(Cl)cc3F)nc2)c(N2CCC(C)(C)CC2)c1[C@H](OC(C)(C)C)C(=O)O ; strain: NL4-3 ; method: luminescence ; value: 0.004 µM
CCC1(C)CCN(c2c(-c3ccc(OCCOc4ccccc4)cn3)cnc(C)c2[C@H](OC(C)(C)C)C(=O)O)CC1 ; strain: NL4-3 ; method: luminescence ; value: 1.9 µM
CC(C)C1=C2[C@H]3CC[C@@H]4[C@@]5(C)CC[C@H](OC(=O)[C@H]6C[C@@H](C(=O)O)C6(C)C)C(C)(C)[C@@H]5CC[C@@]4(C)[C@]3(C)CC[C@@]2([C@@H](O)CNCC(C)(C)NC(=O)CN(C)C)CC1=O ; strain: 92HT599 ; method: p24 / ELISA ; value: <1 µM
Cc1ncc(-c2cnc(OC(C)C(C)OCc3ccccc3)c(F)c2)c(N2CCC(C)(C)CC2)c1[C@H](OC(C)(C)C)C(=O)O ; strain: NL4-3 ; method: luminescence ; value: 0.0071 µM
CC(C)C1=C2[C@H]3CC[C@@H]4[C@@]5(C)CC[C@H](OC(=O)[C@H]6C[C@@H](C(=O)O)C6(C)C)C(C)(C)[C@@H]5CC[C@@]4(C)[C@]3(C)CC[C@@]2([C@@H](O)CNCc2csc(N)n2)CC1=O ; strain: 92HT599 ; method: p24 / ELISA ; value: <1 µM
CC1(C)CC(NC(=O)C(=O)Nc2ccc(Cl)cc2)CC(C)(C)N1 ; strain: IIIB ; method: p24 ; value: 6.51 µM
CNC(=O)c1c(O)c2ncc(Cc3ccc(F)cc3)c3c2n(c1=O)C[C@@](C)(C(=O)NC(C)(C)CO)O3 ; strain: IIIB ; method: ATP / luminescence ; value: 0.0265 µM
CC(C)C1=C2[C@H]3CC[C@@H]4[C@@]5(C)CC[C@H](OC(=O)[C@H]6C[C@@H](C(=O)O)C6(C)C)C(C)(C)[C@@H]5CC[C@@]4(C)[C@]3(C)CC[C@@]2(CCNC(=O)c2cccnc2)CC1=O ; strain: 92HT599 ; method: p24 / ELISA ; value: <1 µM
NC(N)=NCCC[C@H](N)C(=O)NC[C@@H]1OC(O[C@H]2[C@@H](O)[C@H](O[C@@H]3[C@@H](O)[C@H](NC(=O)[C@@H](N)CCCN=C(N)N)C[C@H](NC(=O)[C@@H](N)CCCN=C(N)N)[C@H]3O[C@H]3O[C@H](CNC(=O)[C@@H](N)CCCN=C(N)N)[C@@H](O)[C@H](O)[C@H]3NC(=O)[C@@H](N)CCCN=C(N)N)O[C@@H]2CO)[C@H](NC(=O)[C@@H](N)CCCN=C(N)N)[C@@H](O)[C@@H]1O ; strain: IIIB ; method: p24 / RT activity ; value: 3.7 µM
Cc1ncc(-c2ccc(O[C@H](C)C3CCC3)nc2)c(N2CCC(C)(C)CC2)c1[C@H](OC(C)(C)C)C(=O)O ; strain: NL4-3 ; method: luminescence ; value: 0.0119 µM
Cc1ccc(C(=O)NC(C)(C)CNC(=O)C[C@@]23CC[C@]4(C)[C@H](CC[C@@H]5[C@@]6(C)CC[C@H](OC(=O)[C@H]7C[C@@H](C(=O)O)C7(C)C)C(C)(C)[C@@H]6CC[C@]54C)C2=C(C(C)C)C(=O)C3)cc1 ; strain: 92HT599 ; method: p24 / ELISA ; value: <1 µM
Nc1ncnc2c1ncn2[C@@H]1C=C[C@H](OCP(=O)(O)O)O1 ; changes: RT-M184V ; method: cytopathic effect ; value: 82.6 µM
CC(C)C1=C2[C@H]3CC[C@@H]4[C@@]5(C)CC[C@H](OC(=O)[C@H]6C[C@@H](C(=O)O)C6(C)C)C(C)(C)[C@@H]5CC[C@@]4(C)[C@]3(C)CC[C@@]2([C@@H](O)CNCC2(NC(=O)c3ccc(Cl)cc3)CCCCC2)CC1=O ; strain: 92HT599 ; method: p24 / ELISA ; value: <1 µM
Cc1ncc(-c2ccc(OCCOC(C)C)cn2)c(N2CCC3(CCCC3)CC2)c1[C@H](OC(C)(C)C)C(=O)O ; strain: NL4-3 ; method: luminescence ; value: 6.3 µM
CC(C)C1=C2[C@H]3CC[C@@H]4[C@@]5(C)CC[C@H](OC(=O)[C@H]6C[C@@H](C(=O)O)C6(C)C)C(C)(C)[C@@H]5CC[C@@]4(C)[C@]3(C)CC[C@@]2([C@@H](O)CNC(=O)c2ccc(N)nc2)CC1=O ; strain: 92HT599 ; method: p24 / ELISA ; value: <1 µM
Cc1ncc(-c2ccc(N(C)CCOc3c(F)cccc3Cl)cn2)c(N2CCC(C)(C)CC2)c1[C@H](OC(C)(C)C)C(=O)O ; strain: NL4-3 ; method: luminescence ; value: 0.002 µM
Cc1ncc(-c2ccc(OCC3CCOC3)cn2)c(N2CCC3CCCCC3C2)c1[C@H](OC(C)(C)C)C(=O)O ; strain: NL4-3 ; method: luminescence ; value: 4.9 µM

A second listing of 4 rows from above:

{"smiles": "Cc1ncc(-c2ccc(O[C@H](C)C3CCC3)nc2)c(N2CCC(C)(C)CC2)c1[C@H](OC(C)(C)C)C(=O)O", "strain": "NL4-3", "method": "luminescence", "value": "0.0119 µM"}
{"smiles": "Cc1ccc(C(=O)NC(C)(C)CNC(=O)C[C@@]23CC[C@]4(C)[C@H](CC[C@@H]5[C@@]6(C)CC[C@H](OC(=O)[C@H]7C[C@@H](C(=O)O)C7(C)C)C(C)(C)[C@@H]6CC[C@]54C)C2=C(C(C)C)C(=O)C3)cc1", "strain": "92HT599", "method": "p24 / ELISA", "value": "<1 µM"}
{"smiles": "Cc1ncc(-c2ccc(NCCOc3ccc(Cl)cc3F)nc2)c(N2CCC(C)(C)CC2)c1[C@H](OC(C)(C)C)C(=O)O", "strain": "NL4-3", "method": "luminescence", "value": "0.004 µM"}
{"smiles": "Cc1ncc(-c2ccc(OCC3CCCC3)cn2)c(N2CCC(C)(C)CC2)c1[C@H](OC(C)(C)C)C(=O)O", "strain": "NL4-3", "method": "luminescence", "value": "0.0016 µM"}